System: DENV-2 16681 strain
Test: DENV-2 antiviral assay (eGFP-labeled virus in Vero cells)
Assay type: cell-based, Dengue virus
Conditions: SI=CC50/EC50, DENV-2 antiviral assay
Procedure: The antiviral activity of all the compounds of the invention was tested against DENV-2 16681 strain which was labeled with enhanced green fluorescent protein (eGPF; Table 1). The culture medium consists of minimal essential medium supplemented with 2% of heat-inactivated fetal calf serum, 0.04% gentamycin (50 mg/mL) and 2 mM of L-glutamine. Vero cells, obtained from ECACC, were suspended in culture medium and 25 μL was added to 384-well plates (2500 cells/well), which already contain the antiviral compounds. Typically, these plates contain a 4-fold serial dilution of 9 dilution steps of the test compound at 200 times the final concentration in 100% DMSO (200 nL). In addition, each compound concentration is tested in quadruplicate (final concentration range: 25 μM-0.00038 μM). Finally, each plate contains wells which are assigned as virus controls (containing cells and virus in the absence of compound), cell controls (containing cells in the absence of virus and compound) and medium controls (containing medium in the absence of cells, virus and compounds). To the wells assigned as medium control, 25 μL of culture medium was added instead of Vero cells. Once the cells were added to the plates, the plates were incubated for 30 minutes at room temperature to allow the cells to distribute evenly within the wells. Next, the plates were incubated in a fully humidified incubator (37° C., 5% CO2) until the next day. Then, DENV-2 strain 16681, labeled with eGFP, was added at a multiplicity of infection (MOI) of 0.5. Therefore, 15 μL of virus suspension was added to all the wells containing test compound and to the wells assigned as virus control. In parallel, 15 μL of culture medium was added to the medium and cell controls. Next, the plates were incubated for 3 days in a fully humidified incubator (37° C., 5% CO2). At the day of the read out, the eGFP fluorescence was measured using an automated fluorescence microscope at 488 nm (blue laser). Using an in-house LIMS system, inhibition dose response curves for each compound were calculated and the half maximal effective concentration (EC50) was determined. Therefore, the percent inhibition (I) for every test concentration is calculated using the following formula: I=100*(ST−SCC)/(SVC−SCC); ST, SCC and SVC are the amount of eGFP signal in the test compound, cell control and virus control wells, respectively. The EC50 represents the concentration of a compound at which the virus replication is inhibited with 50%, as measured by a 50% reduction of the eGFP fluorescent intensity compared to the virus control. The EC50 is calculated using linear interpolation.

Compound	SI	further results
COc1cc(NC(C(=O)c2c[nH]c3c(C)c(F)ccc23)c2ccc(F)cc2OC)cc(S(C)(=O)=O)c1 (single isomer, unassigned) [Enantiomer 2B, 2-(4-fluoro-2-methoxyphenyl)-1-(6-fluoro-7-methyl-1H-indol-3-yl)-2-((3-methoxy-5-(methylsulfonyl)phenyl)amino)ethanone]		SI (listed as 2B): 146
COc1cc(NC(C(=O)c2c[nH]c3cc(OC)c(C)cc23)c2ccc(F)cc2OC)cc(S(C)(=O)=O)c1 (racemic) [Compound 10, 2-(4-fluoro-2-methoxyphenyl)-2-((3-methoxy-5-(methylsulfonyl)phenyl)amino)-1-(6-methoxy-5-methyl-1H-indol-3-yl)ethanone]	7070	
COc1cc(NC(C(=O)c2c[nH]c3cc(F)c(C)cc23)c2ccc(F)cc2OC)cc(S(C)(=O)=O)c1 (single isomer, unassigned) [Enantiomer 14B, 2-(4-fluoro-2-methoxyphenyl)-1-(6-fluoro-5-methyl-1H-indol-3-yl)-2-((3-methoxy-5-(methylsulfonyl)phenyl)amino)ethanone]		SI (listed as 14B): 262
COc1cc(NC(C(=O)c2c[nH]c3cc(OC)c(Cl)cc23)c2ccc(F)cc2OC)cc(S(C)(=O)=O)c1 (racemic) [Compound 16, 1-(5-chloro-6-methoxy-1H-indol-3-yl)-2-(4-fluoro-2-methoxyphenyl)-2-((3-methoxy-5-(methylsulfonyl)phenyl)amino)ethanone]	13287	
COc1cc(NC(C(=O)c2c[nH]c3c(F)cc(C)cc23)c2ccc(F)cc2OC)cc(S(C)(=O)=O)c1 (single isomer, unassigned) [Enantiomer 6B, 2-(4-fluoro-2-methoxyphenyl)-1-(7-fluoro-5-methyl-1H-indol-3-yl)-2-((3-methoxy-5-(methylsulfonyl)phenyl)amino)ethanone]		SI (listed as 6B): 67
COc1cc(NC(C(=O)c2c[nH]c3ccc(OC(F)(F)F)cc23)c2ccc(F)cc2OC)cc(S(C)(=O)=O)c1 (single isomer, unassigned) [Enantiomer 18B, 2-(4-fluoro-2-methoxyphenyl)-2-((3-methoxy-5-(methylsulfonyl)phenyl)amino)-1-(5-(trifluoromethoxy)-1H-indol-3-yl)ethanone]		SI (listed as 18B): 1132
COc1cc(NC(C(=O)c2c[nH]c3cc(F)c(F)cc23)c2ccc(F)cc2OC)cc(S(C)(=O)=O)c1 (racemic) [Compound 7, 1-(5,6-difluoro-1H-indol-3-yl)-2-(4-fluoro-2-methoxyphenyl)-2-((3-methoxy-5-(methylsulfonyl)phenyl)amino)ethanone]	3411	
COc1cc(NC(C(=O)c2c[nH]c3ccc(C(F)(F)F)cc23)c2ccc(F)cc2OC)cc(S(C)(=O)=O)c1 (single isomer, unassigned) [Enantiomer 17A, 2-(4-fluoro-2-methoxyphenyl)-2-((3-methoxy-5-(methylsulfonyl)phenyl)amino)-1-(5-(trifluoromethyl)-1H-indol-3-yl)ethanone]		SI (listed as 17A): 353
COc1cc(NC(C(=O)c2c[nH]c3c(C)c(Cl)ccc23)c2ccc(F)cc2OC)cc(S(C)(=O)=O)c1 (racemic) [Compound 3, 1-(6-chloro-7-methyl-1H-indol-3-yl)-2-(4-fluoro-2-methoxyphenyl)-2-((3-methoxy-5-(methylsulfonyl)phenyl)amino)ethanone]	10845	
COc1cc(NC(C(=O)c2c[nH]c3cc(Cl)ccc23)c2ccc(F)cc2OC)cc(S(C)(=O)=O)c1 (racemic) [Compound 4, 1-(6-chloro-1H-indol-3-yl)-2-(4-fluoro-2-methoxyphenyl)-2-((3-methoxy-5-(methylsulfonyl)phenyl)amino)ethanone]	6211	
COc1cc(NC(C(=O)c2c[nH]c3ccc(C(F)(F)F)cc23)c2ccc(F)cc2OC)cc(S(C)(=O)=O)c1 (racemic) [Compound 17, 2-(4-fluoro-2-methoxyphenyl)-2-((3-methoxy-5-(methylsulfonyl)phenyl)amino)-1-(5-(trifluoromethyl)-1H-indol-3-yl)ethanone]	19799	

— patent US10029984B2, “Mono- or di-substituted indole derivatives as dengue viral replication inhibitors” (Janssen Pharmaceuticals, Inc., priority 2015, dated 2018)
